In ChEMBL document CHEMBL1136822, “Synthesis, antiviral activity and pharmacokinetics of P1/P1' substituted 3-aminoindazole cyclic urea HIV protease inhibitors” (Bioorg Med Chem Lett, 2003):

Target: Human immunodeficiency virus type 1 protease (Human immunodeficiency virus 1, UniProt Q72874)
Assay: Binding affinity against HIV-Protease was determined

Nc1n[nH]c2ccc(CN3C(=O)N(Cc4ccccc4)[C@H](Cc4ccccc4)[C@H](O)[C@@H](O)[C@H]3Cc3ccccc3)cc12
Ki: 31 pM
